Measured values from several laboratories, pooled; numbers as filed in NIAID ChemDB.

All rows: tests in culture; species: Hepatitis C virus; read-out: EC50

Blank or dashed fields: not listed here.

structure	cells	strain	mutations	read by	result
CC[C@@H]1C[C@]1(NC(=O)[C@@H]1C[C@@H](Oc2cc(-c3ccccc3)nc3cc(OC)ccc23)CN1C(=O)[C@@H](NC(=O)OCCF)C(C)C)C(=O)NS(=O)(=O)C1CC1	Huh7	1b		replicon	<0.5 µM
O=C(Cc1cc(F)cc(F)c1F)N/N=C/c1ccccc1OS(=O)(=O)c1ccc(C(F)(F)F)cc1	Huh7			replicon	<5 µM
CNC(=O)c1c(-c2ccccc2)oc2cc(OC)c(OC)cc12	Huh7			replicon	<1 µM
COc1ccc2c(c1)CC(C(=O)N1CCOCC1)Cn1c-2c(C2CCCCC2)c2ccc(C(=O)O)cc21	Huh7			replicon	0.01–1 µM
CC#Cc1ccc(C(=O)N2c3cccc(O)c3NC3=C(C(=O)CC(C)(C)C3)[C@@H]2c2ccc(OCc3ccccc3)cc2F)nc1		1b		luciferase / reporter gene / replicon	1.07 µM
N#Cc1ccc(S(=O)(=O)Oc2ccccc2/C=N/NC(=O)Cc2ccccc2)cc1	Huh7			replicon	5–50 µM
CCCCCOc1ccc(N(C(=O)C(=O)OC)c2nc(-c3ccc(Cl)s3)cs2)cc1C(F)(F)F					<1 µM
Cc1cc(C(=O)Nc2ccc(-c3cc(N(C(=O)C4CCC(C)CC4)C(C)C)c(C(=O)O)s3)cc2)n(C)n1		1a		replicon	>0.5 µM
NC(=S)Nc1cccc(OCCCCCOc2ccc(-c3ccc(Cl)cc3)cc2)c1	Ava5-EG(delta4AB)SEAP			reporter gene / fluorescence	0.001–1 µM
CCc1cc2c(C(=O)NC)c(-c3ccc(F)cc3)oc2cc1N(CS(C)(=O)=O)c1cscn1	Huh7			replicon	<1 µM
CC(=O)N1c2cccc(O)c2NC2=C(C(=O)CC(C)(C)C2)C1c1cc(Cl)ccc1Cl		1b		luciferase / reporter gene / replicon	>100 µM
S=C(Nc1cccc(OCc2ccccc2)c1)N1CCN(CCCc2ccccc2)C1=S	Ava5-EG(delta4AB)SEAP			reporter gene / fluorescence	0.001–1 µM
CN1CCN(c2cc3c(cc2F)c(=O)c(-c2noc(Cc4ccccc4)n2)cn3Cc2ccc(Cl)nc2)CC1		1b		replicon	>10 µM
C=C1C[C@]1(NC(=O)[C@@H]1C[C@@H](Oc2cc(-c3ccccc3)nc3cc(OC)ccc23)CN1C(=O)[C@@H](NC(=O)OC(C)(C)C)C(C)(C)C)C(=O)NS(=O)(=O)c1cc(F)ccc1C	Huh7	1b		replicon	<0.5 µM
COc1cccc(CC(=O)N/N=C/c2ccccc2OS(=O)(=O)c2ccc(-c3cnco3)cc2)c1	Huh7			replicon	<5 µM
O=c1c(-c2noc(Cc3ccccc3)n2)cn(Cc2ccc(C(F)(F)F)cc2)c2cc(NCCOCCO)c(F)cc12		1b		replicon	<2 µM
CCc1coc2c1ccc1c2c(-c2ccc[nH]c2=O)c(C(=O)NS(C)(=O)=O)n1Cc1ccccc1F				replicon	>1.5 µM
C=CCOC(=O)N[C@H](C(=O)N1C[C@H](Oc2cc(-c3ccccc3)nc3cc(OC)ccc23)C[C@H]1C(=O)N[C@]1(C(=O)NS(=O)(=O)C2CC2)C[C@H]1C=C)C(C)(C)C	Huh7	1b		replicon	<0.05 µM
CCCCCOc1ccc(N(C(=O)C(=O)OC)c2nc(-c3ccc(F)c(F)c3)cs2)cc1C(F)(F)F					<1 µM
COc1c(-c2ccc3cc(NS(C)(=O)=O)ccc3c2)cc(-n2ccc(=O)[nH]c2=O)cc1C(C)(C)C	Huh7	genotype 1a H77	Y448H	luciferase	0.936 µM
O=C(Cc1ccccc1)N/N=C/c1ccccc1OS(=O)(=O)c1ccc(F)c(F)c1	Huh7			replicon	5–50 µM
CN=C1SC(c2ccc(NC(=O)[C@H]3CCCN3C(=O)OCc3ccccc3)cc2)C(=O)N1Cc1ccccn1	Huh7			replicon	<0.1 µM
C=C[C@@H]1C[C@]1(NC(=O)[C@@H]1C[C@@H](Oc2cc(-c3ccccc3)nc3cc(OC)ccc23)CN1C(=O)[C@@H](NC(=O)COC)C(C)(C)C)C(=O)NS(=O)(=O)C1CC1	Huh7	1b		replicon	<0.5 µM
CC1(C)CC(=O)C2=C(C1)Nc1c(O)cccc1N(C(=O)c1csc(Nc3ccccc3)n1)C2c1ccc(OCc2ccccc2)cc1F		1b		luciferase / reporter gene / replicon	0.45 µM
CC(C)S(=O)(=O)NC(=O)c1c(-c2ccc[nH]c2=O)c2c3occc3ccc2n1Cc1ccccc1F				replicon	<0.5 µM
CCCCCOc1ccc(N(C(N)=O)c2nc(-c3ccc(F)cc3)cs2)cc1C(F)(F)F					<1 µM
O=C(Cc1ccc(C(F)(F)F)cc1)N/N=C/c1ccccc1OS(=O)(=O)c1ccc(C(F)(F)F)cc1	Huh7			replicon	<5 µM
C=C[C@@H]1C[C@]1(NC(=O)[C@@H]1C[C@@H](Oc2cc(-c3ccccc3)nc3cc(OC)ccc23)CN1C(=O)[C@@H](NS(C)(=O)=O)C(C)(C)C)C(=O)NS(=O)(=O)C1CC1	Huh7	1b		replicon	<0.5 µM
O=C(O)c1c(-c2ccc[nH]c2=O)c2c3occc3c(F)cc2n1Cc1cc2[nH]cnc2cc1F				replicon	<0.5 µM
NC(=O)COc1ccc2c(c1)S(=O)(=O)N=C(c1c(O)c3cc(F)ccc3n(CCC3CC3)c1=O)N2		1a 33772		replicon	0.26 µM
C=C[C@@H]1C[C@]1(NC(=O)[C@@H]1C[C@@H](Oc2cc(-c3ccccc3)nc3cc(OC)ccc23)CN1C(=O)[C@@H](NC(=O)OC(C)(C)C)C(C)(C)C)C(=O)NS(=O)(=O)C1CCC1	Huh7	1b		replicon	<0.05 µM
CN1CCN(c2cc3c(cc2F)c(=O)c(-c2noc(CN4CCCC4)n2)cn3Cc2ccc(Cl)cc2)CC1		1b		replicon	>10 µM
CC1CCC(C(=O)N(c2cc(-c3ccc(NC(=O)c4cncn4C)cc3)sc2C(=O)O)C(C)C)CC1		1a		replicon	>0.5 µM
COC(=O)N[C@H](C(=O)N1CCC[C@H]1c1ncc(-c2ccc(-c3ccc(-c4cnc([C@@H]5CCCN5C(=O)[C@@H](NC(=O)OC)C(C)C)[nH]4)cc3)cc2)[nH]1)C(C)C	Lunet	1a	M28V	luciferase	0.0000208 µM
CCc1nc(C(=O)N2c3cccc(O)c3NC3=C(C(=O)CC(C)(C)C3)C2c2ccc(OCc3ccccc3)cc2F)c(C)o1		1b		luciferase / reporter gene / replicon	29.81 µM
NC(=O)c1cnc(F)c(Cn2c(C(=O)O)c(-c3ccc[nH]c3=O)c3c4occc4c(F)cc32)c1				replicon	<0.5 µM
CCOC(=O)/N=C1\SC(c2ccc(NC(=O)[C@H]3CCCN3C(=O)OCc3ccccc3)cc2)C(=O)N1Cc1cccnc1	Huh7			replicon	<0.1 µM
O=C(NS(=O)(=O)C1CC1)c1c(-c2ccc[nH]c2=O)c2c3occc3c(F)cc2n1Cc1ccccc1F				replicon	<0.5 µM
CC1CCC(C(=O)N(c2cc(-c3ccc(NC(=O)c4nccn4C)cc3)sc2C(=O)O)C(C)C)CC1		1b		replicon	<0.5 µM
Cc1ccc(S(=O)(=O)Cc2ccccc2/C=N/NC(=O)Cc2cccc(Cl)c2)cc1	Huh7			replicon	<5 µM
COCCCNC(=S)Nc1ccc2c(c1)Cc1cc(Br)ccc1-2	Ava5-EG(delta4AB)SEAP			reporter gene / fluorescence	0.001–1 µM
CN1CCN(c2cc3c(cc2F)c(=O)c(-c2noc(Cc4ccc(F)cc4)n2)cn3Cc2ccc(Cl)cc2F)CC1		1b		replicon	<2 µM
COC(=O)c1ccc2c(C3CCCCC3)c3n(c2c1)CC(C(=O)N1CCOCC1)Cc1ccncc1-3	Huh7			replicon	0.01–1 µM
CNC(=O)c1c(-c2ccc(F)cc2)oc2cc(NS(C)(=O)=O)ccc12	Huh7			replicon	<10 µM
Cc1cc(F)ccc1N=C1SC(c2ccc(NC(=O)[C@H]3CCCN3C(=O)OCc3ccccc3)cc2)C(=O)N1Cc1ccco1	Huh7			replicon	1–5 µM
CC(C)C(=O)N1c2cccc(O)c2NC2=C(C(=O)CC(C)(C)C2)C1c1ccc(COc2ccc(F)cc2F)o1		1b		luciferase / reporter gene / replicon	4.33 µM
CN1CCN(c2cc3c(cc2F)c(=O)c(-c2noc(C(CCCCNC(=O)OC(C)(C)C)c4ccccc4)n2)cn3Cc2ccc(Cl)cc2)CC1		1b		replicon	<0.5 µM
O=C(O)c1ccc2c(C3CCCCC3)c3n(c2c1)CC(C(=O)N1CCOCC1)Cc1cccnc1-3	Huh7			replicon	1–10 µM
CNC(=O)c1c(-c2ccc(F)cc2)oc2cc(S(=O)(=O)N(C)C)c(OC(C)C)cc12	Huh7			replicon	<30 µM
COc1cc(OCCCCCOc2cccc(NC(N)=S)c2)cc(OC)c1OC	Ava5-EG(delta4AB)SEAP			reporter gene / fluorescence	0.001–1 µM
CN(Cc1ccc(C(=O)O)cc1)S(=O)(=O)NC(=O)c1ccc2c(C3CCCCC3)c3n(c2c1)CC(=O)Nc1ccccc1-3	Huh7			replicon	1–10 µM
COc1ccc2cc(Cn3c(C(=O)O)c(-c4ccc[nH]c4=O)c4c5occc5c(F)cc43)c(Cl)nc2c1				replicon	<0.5 µM
CCOc1cc2c(C(=O)NC)c(-c3ccc(F)cc3)oc2cc1N1CCOCC1	Huh7			replicon	<10 µM
CSc1ncccc1C(=O)N/N=C/c1ccccc1OS(=O)(=O)c1ccc(C(F)(F)F)cc1	Huh7			replicon	<5 µM
COC(=O)/C=C/c1ccc(NC(=O)C2(NC(=O)c3ccc4c(C5CCCCC5)c5n(c4c3)CCCc3ncccc3-5)CCCC2)cc1	Huh7			replicon	0.01–1 µM
CNC(=O)c1c(-c2ccc(F)cc2)oc2cc(NS(C)(=O)=O)c(-c3c(C)noc3C)cc12	Huh7			replicon	<10 µM
O=C(NC1(C(=O)OCc2ccccc2)CCCC1)c1ccc2c(C3CCCCC3)c3n(c2c1)CCCc1cc(O)ccc1-3	Huh7			replicon	1–10 µM
O=C(Nc1ccc(C2SC(=Nc3cccc(F)c3)N(Cc3ccccn3)C2=O)cc1)[C@H]1CCCN1C(=O)Cc1ccccc1	Huh7			replicon	<0.1 µM
CCCCCCCOc1ccc(N(C(=O)C(=O)OC)c2nc(-c3cccnc3)cs2)cc1					<1 µM
COc1ccc(C(=O)N2CCC[C@@H]2C(=O)Nc2ccc(C3SC(=Nc4cccc(F)c4)N(Cc4ccco4)C3=O)cc2)cc1OC	Huh7			replicon	0.1–1 µM
CNC(=O)c1c(-c2ccc(F)cc2)oc2cc(N(CCN3CCOCC3)S(C)(=O)=O)c(OC(C)C)cc12	Huh7			replicon	<1 µM
CCOc1cccc(/C=N/NC(=O)Cc2cccc(OC)c2)c1OS(=O)(=O)c1ccc(C)cc1	Huh7			replicon	5–50 µM
CC1=C(C(=O)N2CCOCC2)Cn2c(c(C3CCCCC3)c3ccc(C(=O)O)cc32)-c2ccccc21	Huh7			replicon	0.01–1 µM
COc1cccc(CC(=O)N/N=C/c2c(F)cccc2OS(=O)(=O)c2ccc(C(F)(F)F)cc2)c1	Huh7			replicon	<5 µM
CC1CCC(C(=O)N(c2cc(-c3ccc(NC(=O)c4cscn4)cc3)sc2C(=O)O)C2COCOC2)CC1		1b		replicon	<0.5 µM
NC(=S)Nc1cccc(OCCCCCCCCOc2cccc3ccccc23)c1	Ava5-EG(delta4AB)SEAP			reporter gene / fluorescence	0.001–1 µM
CC(C)n1ncc2cc(Cn3c(C(=O)O)c(-c4ccc[nH]c4=O)c4c5occc5c(F)cc43)c(Cl)nc21				replicon	0.5–1.5 µM
CC(=O)N1CCn2c(c(C3CCCCC3)c3ccc(C(=O)NS(=O)(=O)N(C)C)cc32)-c2ccccc21	Huh7			replicon	0.01–1 µM
CC1CCC(C(=O)N(c2cc(-c3ccc(NC(=O)c4cccs4)cc3)sc2C(=O)O)C(C)C)CC1		1a		replicon	<0.5 µM
CN1CCCN(c2nc3c(cc2F)c(=O)c(-c2noc(C(C)(C)c4ccccc4)n2)cn3Cc2ccc(C(F)(F)F)cc2)CC1		1b		replicon	>10 µM

The last 6 rows once more:

{"structure": "CC1CCC(C(=O)N(c2cc(-c3ccc(NC(=O)c4cscn4)cc3)sc2C(=O)O)C2COCOC2)CC1", "strain": "1b", "read by": "replicon", "result": "<0.5 µM"}
{"structure": "NC(=S)Nc1cccc(OCCCCCCCCOc2cccc3ccccc23)c1", "cells": "Ava5-EG(delta4AB)SEAP", "read by": "reporter gene / fluorescence", "result": "0.001–1 µM"}
{"structure": "CC(C)n1ncc2cc(Cn3c(C(=O)O)c(-c4ccc[nH]c4=O)c4c5occc5c(F)cc43)c(Cl)nc21", "read by": "replicon", "result": "0.5–1.5 µM"}
{"structure": "CC(=O)N1CCn2c(c(C3CCCCC3)c3ccc(C(=O)NS(=O)(=O)N(C)C)cc32)-c2ccccc21", "cells": "Huh7", "read by": "replicon", "result": "0.01–1 µM"}
{"structure": "CC1CCC(C(=O)N(c2cc(-c3ccc(NC(=O)c4cccs4)cc3)sc2C(=O)O)C(C)C)CC1", "strain": "1a", "read by": "replicon", "result": "<0.5 µM"}
{"structure": "CN1CCCN(c2nc3c(cc2F)c(=O)c(-c2noc(C(C)(C)c4ccccc4)n2)cn3Cc2ccc(C(F)(F)F)cc2)CC1", "strain": "1b", "read by": "replicon", "result": ">10 µM"}

Rows are shuffled and stem from different studies. Two numbers with a dash give a range or band. ECn: concentration that inhibits the pathogen or its effect by n%.